Source: US10975126B1 (priority 2020, dated 2021)
pEC50: −log10 of the molar value.

Tested on: MERS-CoV
Experiment: Plaque reduction assay
Assay type: cell-based, MERS-CoV (CoV/KOR/KNIH/002_05_2015) in Vero cells
Details: for Normalize (plaque number): Vero cells, four days after infection; for Percent of DMSO #: plaques relative to DMSO control

CC[C@H](C)[C@H](NC(=O)[C@H](Cc1ccc(O)cc1)NC(=O)[C@H](Cc1ccc(O)cc1)NC(=O)[C@H](CCC(=O)O)NC(=O)[C@H](CC(N)=O)NC(=O)[C@H](CC(C)C)NC(=O)[C@H](C)NC(=O)[C@H](CCCCN)NC(=O)[C@@H](NC(=O)[C@@H](NC(=O)[C@H](CCC(N)=O)NC(=O)[C@H](CCC(N)=O)NC(=O)[C@H](CC(C)C)NC(=O)[C@H](CO)NC(=O)[C@H](CCC(=O)O)NC(=O)[C@H](CCSC)NC(=O)[C@H](CCC(=O)O)NC(=O)[C@H](Cc1ccc(O)cc1)NC(=O)[C@@H](NC(=O)[C@H](CC(C)C)NC(=O)[C@H](CC(=O)O)NC(=O)[C@H](CC(C)C)NC(=O)[C@H](CC(C)C)NC(=O)[C@@H](NC(=O)[C@H](Cc1c[nH]c2ccccc12)NC(=O)[C@H](CC(N)=O)NC(=O)[C@@H](NC(=O)[C@H](CCC(N)=O)NC(=O)[C@@H](NC(=O)[C@H](CC(C)C)NC(=O)[C@@H](N)CO)[C@@H](C)O)[C@@H](C)CC)[C@@H](C)O)[C@@H](C)O)C(C)C)C(C)C)C(=O)N[C@@H](CC(=O)O)C(=O)N[C@@H](CC(C)C)C(=O)N[C@@H](CCCCN)C(=O)N[C@@H](CCC(=O)O)C(=O)N[C@@H](CC(C)C)C(=O)O [Peptide 5]
Normalize (plaque number) (10 μM peptide): 31 | inhibition of plaque formation (10 μM peptide, initial test): 95% | Percent of DMSO # (10 μM peptide): 5.032%

CC[C@H](C)[C@H](NC(=O)[C@H](Cc1ccc(O)cc1)NC(=O)[C@H](Cc1ccc(O)cc1)NC(=O)[C@H](CCC(=O)O)NC(=O)[C@H](CC(N)=O)NC(=O)[C@H](CC(C)C)NC(=O)[C@H](C)NC(=O)[C@H](CCCCN)NC(=O)[C@H](CCSC)NC(=O)[C@@H](NC(=O)[C@H](CCC(N)=O)NC(=O)[C@H](CCC(N)=O)NC(=O)[C@H](CC(C)C)NC(=O)[C@H](CO)NC(=O)[C@H](CCC(=O)O)NC(=O)[C@H](CCSC)NC(=O)[C@H](CCC(=O)O)NC(=O)[C@H](Cc1ccc(O)cc1)NC(=O)[C@@H](NC(=O)[C@H](CC(C)C)NC(=O)[C@H](CC(=O)O)NC(=O)[C@H](CC(C)C)NC(=O)[C@H](CC(C)C)NC(=O)[C@@H](NC(=O)[C@H](Cc1c[nH]c2ccccc12)NC(=O)[C@H](CC(N)=O)NC(=O)[C@@H](NC(=O)[C@H](CCC(N)=O)NC(=O)[C@@H](NC(=O)[C@H](CC(C)C)NC(=O)[C@@H](N)CO)[C@@H](C)O)[C@@H](C)CC)[C@@H](C)O)[C@@H](C)O)C(C)C)C(=O)N[C@@H](CC(=O)O)C(=O)N[C@@H](CC(C)C)C(=O)N[C@@H](CCCCN)C(=O)N[C@@H](Cc1c[nH]cn1)C(=O)N[C@@H](CC(C)C)C(=O)O
Normalize (plaque number) (10 μM peptide): 220 | Percent of DMSO # (10 μM peptide): 35.71%

CC[C@H](C)[C@H](NC(=O)[C@H](Cc1ccc(O)cc1)NC(=O)[C@H](CO)NC(=O)[C@H](CCC(=O)O)NC(=O)[C@H](CC(N)=O)NC(=O)[C@H](CC(C)C)NC(=O)[C@H](C)NC(=O)[C@H](CCCCN)NC(=O)[C@@H](NC(=O)[C@@H](NC(=O)[C@H](CCC(N)=O)NC(=O)[C@H](CCC(N)=O)NC(=O)[C@H](CC(C)C)NC(=O)[C@H](CO)NC(=O)[C@H](CC(C)C)NC(=O)[C@H](CCSC)NC(=O)[C@H](CCC(=O)O)NC(=O)[C@H](Cc1ccc(O)cc1)NC(=O)[C@@H](NC(=O)[C@H](CC(C)C)NC(=O)[C@H](CC(=O)O)NC(=O)[C@H](CC(C)C)NC(=O)[C@H](CC(C)C)NC(=O)[C@@H](NC(=O)[C@@H](NC(=O)[C@H](CC(N)=O)NC(=O)[C@@H](NC(=O)[C@H](CCC(N)=O)NC(=O)[C@@H](NC(=O)[C@H](CC(C)C)NC(=O)[C@@H](N)CO)[C@@H](C)O)[C@@H](C)CC)[C@@H](C)O)[C@@H](C)O)[C@@H](C)O)C(C)C)C(C)C)C(=O)N[C@@H](CC(=O)O)C(=O)N[C@@H](CC(C)C)C(=O)N[C@@H](CCCCN)C(=O)N[C@@H](CCC(=O)O)C(=O)N[C@@H](CC(C)C)C(=O)O
Normalize (plaque number) (10 μM peptide): 220 | Percent of DMSO # (10 μM peptide): 35.71%

CC[C@H](C)[C@H](NC(=O)[C@H](Cc1ccc(O)cc1)NC(=O)[C@H](CO)NC(=O)[C@H](CCC(=O)O)NC(=O)[C@H](CC(N)=O)NC(=O)[C@H](CC(C)C)NC(=O)[C@H](CCCCN)NC(=O)[C@H](CCCCN)NC(=O)[C@@H](NC(=O)[C@@H](NC(=O)[C@H](CCC(=O)O)NC(=O)[C@H](CCC(=O)O)NC(=O)[C@H](CC(C)C)NC(=O)[C@H](CO)NC(=O)[C@H](CCCNC(=N)N)NC(=O)[C@H](CCSC)NC(=O)[C@H](CCC(=O)O)NC(=O)[C@H](Cc1ccc(O)cc1)NC(=O)[C@H](CCC(=O)O)NC(=O)[C@H](CC(C)C)NC(=O)[C@H](CC(=O)O)NC(=O)[C@H](CC(C)C)NC(=O)[C@H](CC(C)C)NC(=O)[C@@H](NC(=O)[C@@H](NC(=O)[C@H](CC(N)=O)NC(=O)[C@@H](NC(=O)[C@H](CCC(N)=O)NC(=O)[C@@H](NC(=O)[C@H](CC(C)C)NC(=O)[C@@H](N)CO)[C@@H](C)O)[C@@H](C)CC)[C@@H](C)O)[C@@H](C)O)C(C)C)C(C)C)C(=O)N[C@@H](CC(=O)O)C(=O)N[C@@H](CCC(=O)O)C(=O)N[C@@H](CCCCN)C(=O)N[C@@H](CCC(=O)O)C(=O)N[C@@H](CC(C)C)C(=O)O
Normalize (plaque number) (10 μM peptide): 192 | Percent of DMSO # (10 μM peptide): 31.17%

CC[C@H](C)[C@H](NC(=O)[C@H](Cc1ccc(O)cc1)NC(=O)[C@H](CO)NC(=O)[C@H](CCC(=O)O)NC(=O)[C@H](CC(N)=O)NC(=O)[C@H](CC(C)C)NC(=O)[C@H](CCCCN)NC(=O)[C@H](CCCCN)NC(=O)[C@@H](NC(=O)[C@@H](NC(=O)[C@H](CCC(=O)O)NC(=O)[C@H](CCC(=O)O)NC(=O)[C@H](CC(C)C)NC(=O)[C@H](CO)NC(=O)[C@H](CCCNC(=N)N)NC(=O)[C@H](CCSC)NC(=O)[C@H](CCC(=O)O)NC(=O)[C@H](Cc1ccc(O)cc1)NC(=O)[C@H](CCC(=O)O)NC(=O)[C@H](CC(C)C)NC(=O)[C@H](CC(=O)O)NC(=O)[C@H](CC(C)C)NC(=O)[C@H](CC(C)C)NC(=O)[C@@H](NC(=O)[C@@H](NC(=O)[C@H](CC(N)=O)NC(=O)[C@@H](NC(=O)[C@H](CCC(N)=O)NC(=O)[C@@H](NC(=O)[C@H](CC(C)C)NC(=O)[C@@H](N)CO)[C@@H](C)O)[C@@H](C)CC)[C@@H](C)O)[C@@H](C)O)C(C)C)C(C)C)C(=O)N[C@@H](CC(=O)O)C(=O)N[C@@H](CC(C)C)C(=O)N[C@@H](CCCCN)C(=O)N[C@@H](CCC(=O)O)C(=O)N[C@@H](CC(C)C)C(=O)O
Normalize (plaque number) (10 μM peptide): 184 | Percent of DMSO # (10 μM peptide): 29.87%

CC[C@H](C)[C@H](NC(=O)[C@H](Cc1ccc(O)cc1)NC(=O)[C@H](Cc1ccc(O)cc1)NC(=O)[C@H](CCC(=O)O)NC(=O)[C@H](CC(N)=O)NC(=O)[C@H](CC(C)C)NC(=O)[C@H](C)NC(=O)[C@H](CCCCN)NC(=O)[C@@H](NC(=O)[C@@H](NC(=O)[C@H](CCC(N)=O)NC(=O)[C@H](CCC(N)=O)NC(=O)[C@H](CC(C)C)NC(=O)[C@H](CO)NC(=O)[C@H](CCC(=O)O)NC(=O)[C@H](CCSC)NC(=O)[C@H](CCC(=O)O)NC(=O)[C@H](Cc1ccc(O)cc1)NC(=O)[C@@H](NC(=O)[C@H](CC(C)C)NC(=O)[C@H](CC(=O)O)NC(=O)[C@H](CC(C)C)NC(=O)[C@H](CC(C)C)NC(=O)[C@@H](NC(=O)[C@H](Cc1c[nH]c2ccccc12)NC(=O)[C@H](CC(N)=O)NC(=O)[C@@H](NC(=O)[C@H](CCC(N)=O)NC(=O)[C@@H](NC(=O)[C@H](CC(C)C)NC(=O)[C@@H](N)CO)[C@@H](C)O)[C@@H](C)CC)[C@@H](C)O)[C@@H](C)O)C(C)C)C(C)C)C(=O)N[C@@H](CC(=O)O)C(=O)N[C@@H](CC(C)C)C(=O)N[C@@H](CCCCN)C(=O)N[C@@H](Cc1c[nH]cn1)C(=O)N[C@@H](CC(C)C)C(=O)O
Percent of DMSO # (10 μM peptide): 1.299% | pEC50 (plaque reduction, peptide at 50 μM to 3.125 μM): 5.73
